# PubChem BioAssay AID488890 (Southern Research Specialized Biocontainment Screening …, 2010)
# The entries are a selection whose mix differs from that of the whole data set. Records with an inconclusive call do not appear. The rule behind the calls is not given here.
# Test: growth inhibition of non-replicating M. tuberculosis (AID 488890);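 note: plate controls were DMSO cells for no effect and high antibiotic wells for full effect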
# Details: Mycobacterium tuberculosis non-replicating, at 25 µM, stronger effect = higher value
row,Structure (SMILES),inhibition
1,Nc1cccc2ccc([As](=O)(O)O)cc12,-3.5%
